Laboratory results published in publication PMC10079235 (PLOS Neglected Tropical Diseases, 2023).
Counter-ions that a name gives are not always drawn.

System: Cryptosporidium parvum
Assay: Anti-cryptosporidial efficacy assay (44-h infection/qRT-PCR)
Conditions: for Hill slope (h): efficacy curve; for Hill slope (h), mean values: mean of h of efficacy and cytotoxicity assays (S6 Table), h used in Fig 11B; for Pct change of EC50 (vs NC): MDR1(PTX) vs NC host cells

Row | SMILES | Hill slope (h) (NC host cells) | Hill slope (h) (WT host cells) | Hill slope (h), mean values | Pct change of EC50 (vs NC) | Hill slope (h) (MDR1(PTX) host cells)
1 | CC(=O)Oc1ccccc1C(=O)Nc1ncc([N+](=O)[O-])s1 [Nitazoxanide] | 1.14 | 1.14 | 1.116 |  | 
2 | CC[C@]1(O)C[C@H]2CN(CCc3c([nH]c4ccccc34)[C@@](C(=O)OC)(c3cc4c(cc3OC)N(C=O)[C@H]3[C@@](O)(C(=O)OC)[C@H](OC(C)=O)[C@]5(CC)C=CCN6CC[C@]43[C@@H]65)C2)C1 [Vincristine, Vincristine sulphate] | 1.01 | 1.00 | 1.030 | 75.3% | 1.02
3 | O=C1c2c(O)ccc(O)c2C(=O)c2c(NCCNCCO)ccc(NCCNCCO)c21 [Mitoxantrone, Mitoxantrone 2HCl] | 1.16 | 1.12 | 1.092 | 103.9% | 
4 | CC(=O)O[C@H]1C(=O)[C@@]2(C)[C@H]([C@H](OC(=O)c3ccccc3)[C@]3(O)C[C@H](OC(=O)[C@H](O)[C@@H](NC(=O)c4ccccc4)c4ccccc4)C(C)=C1C3(C)C)[C@]1(OC(C)=O)CO[C@@H]1C[C@@H]2O [Paclitaxel] | 1.09 | 1.07 | 1.059 | -3.3% | 1.04
5 | COc1cccc2c1C(=O)c1c(O)c3c(c(O)c1C2=O)C[C@@](O)(C(=O)CO)C[C@@H]3O[C@H]1C[C@H](N)[C@H](O)[C@H](C)O1 [Doxorubicin, Doxorubicin HCl] | 1.14 | 1.05 | 1.099 | 63.9% | 1.07
